Assay results published in PMC10403511, “DNA-encoded chemical libraries yield non-covalent and non-peptidic SARS-CoV-2 main protease inhibitors” (Communications Chemistry, 2023).

Target: SARS-CoV-2 M^pro (Severe acute respiratory syndrome coronavirus 2, UniProt P0DTD1)
Experiment: M^pro enzyme inhibition assay, proteolytic cleavage of fluorescent peptide reporter, Ki by Morrison equation
Assay type: biochemical

| Compound | Ki | Ki (read-out: Mpro Ki) |
| --- | --- | --- |
| CCC[C@H](NC(=O)c1cccc2nc(-c3cncc4ccccc34)n(C3CCC3)c12)c1ccc(OC(F)F)cc1 | 67 nM | 71 nM |
| CCC[C@H](NC(=O)c1cccc2nc(-c3cccnc3)n(CCCC(=O)NC)c12)c1ccc(C(F)(F)F)cc1 | – | 805 nM |

Read-outs that look alike come from different tables or passages of the source.
